Results of unrelated studies side by side (data: NIAID ChemDB).

All rows: growth or infection tests; organism: Aspergillus fumigatus; measure: MIC

An empty or dashed field is not shown.

compound	method	strain	result
COC(=O)/C=C/c1ccccc1	broth dilution / resazurin	ATCC 16404	500 µg/mL
CCC(C)CCCCCCC1CC(=O)NCC(=O)N[C@@H](CCCN)C(=O)N[C@@H](C(C)C)C(=O)N1	-	IFM41088	>80 µg/mL
N#Cc1ccc(Nc2nc(Oc3cccc4cccnc34)nc(N3CCN(c4cccc(Cl)c4)CC3)n2)cc1C(F)(F)F	agar	MTCC 343	25 µg/mL
CC1S[C@H](c2ccc(Cl)cc2)N(c2nc(N3CCN(C)CC3)n[nH]2)C1=O	broth dilution	168.95	10 µg/mL
CCN1CCN(c2nc(Nc3ccc(C#N)c(C(F)(F)F)c3)nc(Oc3cccc4cccnc34)n2)CC1	agar	MTCC 343	50 µg/mL
COC(=O)N[C@H](C(=O)NN(CC[C@]1(Cc2ccccc2)C(=O)N(C2c3ccccc3C[C@H]2O)C[C@H]1O)Cc1ccc(Br)cc1)C(C)(C)C	agar	RCMB 002003	15.6 µg/mL
O=C1CS[C@H](c2ccc3c(c2)OCO3)N1c1nc(N2CCOCC2)n[nH]1	broth dilution	168.95	33.4 µg/mL
COC(=O)N[C@H](C(=O)NN(CC[C@@]1(Cc2ccccc2)C(=O)N(C2c3ccccc3C[C@H]2O)C[C@H]1O)Cc1ccc(-c2cccnc2)cc1)C(C)(C)C	agar	RCMB 002003	7.8 µg/mL
N#Cc1ccc(Nc2nc(Oc3cccc4cccnc34)nc(N3CCN(c4cccc(Cl)c4Cl)CC3)n2)cc1C(F)(F)F	agar	MTCC 343	6.25 µg/mL
Cc1ccc(C(C)C)cc1O	-	F07	0.16 µg/mL
CC(=O)Nc1ccc(NC(=O)CSc2nnc(-c3ccc4ncccc4c3)o2)cc1	agar	-	100 µg/mL
COc1cc(NS(=O)(=O)c2ccc(N)cc2)nc(OC)n1	-	IFM 51126	128 µg/mL
N#Cc1ccc(Nc2nc(Oc3cccc4cccnc34)nc(N3CCCCC3)n2)cc1C(F)(F)F	agar	MTCC 343	50 µg/mL
CCC(C)CC(C)CCCCCCCCC(=O)N[C@H]1C[C@@H](O)[C@H](NCCN)NC(=O)[C@@H]2[C@@H](O)CCN2C(=O)[C@H]([C@H](O)CCN)NC(=O)[C@H]([C@H](O)[C@@H](O)c2ccc(O)cc2)NC(=O)[C@@H]2C[C@@H](O)CN2C(=O)[C@H]([C@@H](C)O)NC1=O	broth dilution	ND231	0.125 µg/mL
O=C(CSc1nnc(-c2ccc3ncccc3c2)o1)Nc1ccc([N+](=O)[O-])cc1	agar	-	100 µg/mL
Oc1ccc(CCN=C=S)cc1	visual reading	Rit 1	4 µg/mL
CCC(C)CCCCCCC1CC(=O)NCC(=O)N[C@@H](CCCN)C(=O)N[C@@H](C(C)CC)C(=O)N1	-	IFM4942	>80 µg/mL
Nc1ccc(S(=O)(=O)Nc2ccnn2-c2ccccc2)cc1	-	IFM 51126	64 µg/mL
COC(=O)N[C@H](C(=O)NN(CC[C@@]1(Cc2ccccc2)C(=O)N(C2c3ccccc3C[C@H]2O)C[C@H]1O)Cc1ccc(-c2ccccn2)cc1)C(C)(C)C	agar	RCMB 002003	15.6 µg/mL
COc1cc(NS(=O)(=O)c2ccc(N)cc2)ncn1	-	IFM 48051	64 µg/mL
O=c1c(N2CCOCC2)c(N2CCN(S(=O)(=O)Cc3ccccc3)CC2)cnn1-c1ccccc1	broth dilution	ND231	6.25 µg/mL
COC(=O)N[C@H](C(=O)NN(CC[C@@]1(Cc2ccccc2)C(=O)N(C2c3ccccc3C[C@H]2O[Si](C)(C)C(C)(C)C)C[C@@H]1O[Si](C)(C)C(C)(C)C)Cc1ccc(Br)cc1)C(C)(C)C	agar	RCMB 002003	15.6 µg/mL
Cc1ccc(NC(=O)CSc2nnc(-c3ccc4ncccc4c3)o2)cc1	agar	-	100 µg/mL
CC1S[C@H](c2ccc3c(c2)OCO3)N(c2nc(N3CCOCC3)n[nH]2)C1=O	broth dilution	168.95	100 µg/mL
COC(=O)N[C@H](C(=O)NN(CCC[C@@]1(Cc2ccccc2)C(=O)N(C2c3ccccc3C[C@H]2O)C[C@H]1O)Cc1ccc(-c2ccccn2)cc1)C(C)(C)C	agar	RCMB 002003	7.8 µg/mL
COc1ccc(NS(=O)(=O)c2ccc(N)cc2)nn1	-	IFM 51126	≥256 µg/mL
CCOc1ccc2nc(NC(=O)CSc3nnc(-c4ccc5ncccc5c4)o3)sc2c1	agar	-	100 µg/mL
COC(=O)N[C@H](C(=O)NN(CC[C@@]1(Cc2ccccc2)C(=O)N(C2c3ccccc3C[C@H]2O)C[C@@H]1O)Cc1ccc(-c2cccnc2)cc1)C(C)(C)C	agar	RCMB 002003	7.8 µg/mL

The last 4 rows once more:

| compound | method | strain | result |
|---|---|---|---|
| COC(=O)N[C@H](C(=O)NN(CCC[C@@]1(Cc2ccccc2)C(=O)N(C2c3ccccc3C[C@H]2O)C[C@H]1O)Cc1ccc(-c2ccccn2)cc1)C(C)(C)C | agar | RCMB 002003 | 7.8 µg/mL |
| COc1ccc(NS(=O)(=O)c2ccc(N)cc2)nn1 | - | IFM 51126 | ≥256 µg/mL |
| CCOc1ccc2nc(NC(=O)CSc3nnc(-c4ccc5ncccc5c4)o3)sc2c1 | agar | - | 100 µg/mL |
| COC(=O)N[C@H](C(=O)NN(CC[C@@]1(Cc2ccccc2)C(=O)N(C2c3ccccc3C[C@H]2O)C[C@@H]1O)Cc1ccc(-c2cccnc2)cc1)C(C)(C)C | agar | RCMB 002003 | 7.8 µg/mL |

Conditions beyond the fields shown may differ between rows.